Compound potency records, mixed from different reports. Data source: NIAID ChemDB in PubChem.

All rows: target-level tests; species: Hepatitis C virus

Two numbers with a dash give a range or band.

smiles,read-out,dose,target,result
Cc1nc(C)c(COc2ccc(-c3cnc4c(-c5nn[nH]n5)cnn4c3C3CCCCC3)cc2)s1,IC50,-,RNA-dependent RNA polymerase,<1 µM
O=C(Nc1cscc1-c1nc(C(=O)O)c(O)c(=O)[nH]1)NS(=O)(=O)c1cccc(Br)c1,IC50,-,HCV polymerase,<25 µM
CN(C)c1ccc(-c2nc3ccc(-c4nc5cc(C(=O)O)ccc5n4C4CCCCC4)cc3nc2-c2ccc(N(C)C)cc2)cc1,inhibition,100 µM,NS5B polymerase,104%
CNC(=O)c1c(-c2ccccc2)oc2ccc(C(C)C)cc12,IC50,-,Nonstructural protein 5B,≤0.5 µM
O=C(O)C1C[C@@H](O)CN1C(=O)c1ccc2c(c1)nc(-c1ccc3nc(-c4ccccc4)cnc3c1)n2C1CCCCC1,inhibition,33 µM,NS5B polymerase,47.36%
NC(=O)C(CC(=O)O)NC(=O)c1cnn2c(C3CCCCC3)c(-c3ccc(F)cc3F)cnc12,IC50,-,RNA-dependent RNA polymerase,1–10 µM
Cc1ccccc1CNC(=O)Nc1cccc(-c2nc(C(=O)O)c(O)c(=O)[nH]2)c1,IC50,-,HCV polymerase,<100 µM
O=C(N[C@@H](Cc1cc2ccccc2[nH]1)C(=O)O)c1cc2nc(OCc3ccccc3)c(CCC3CCCCC3)c(=O)n2[nH]1,IC50,-,RNA-dependent RNA polymerase,1–10 µM
O=C(Nc1ccsc1-c1nc(C(=O)O)c(O)c(=O)[nH]1)OCc1cc(F)ccc1F,IC50,-,HCV polymerase,<25 µM
O=C(O)c1cc2nc(-c3ccccc3)cc(-c3cccc(F)c3)n2n1,IC50,-,RNA-dependent RNA polymerase,>10 µM
CNC(=O)c1c(-c2ccc(F)cc2)oc2cc(-c3c(C)noc3C)c(OC)cc12,IC50,-,Nonstructural protein 5B,≤0.5 µM
O=C(O)c1nc(-c2ccccc2Cl)[nH]c(=O)c1O,IC50,-,HCV polymerase,<100 µM
O=C(O)c1cnn2c(-c3ccc(Cl)cc3)cc(-c3ccc(F)cc3)nc12,IC50,-,RNA-dependent RNA polymerase,>10 µM
O=C(Nc1cscc1-c1nc(C(=O)O)c(O)c(=O)[nH]1)NS(=O)(=O)c1ccc(-c2ccccc2)cc1,IC50,-,HCV polymerase,<25 µM
O=C(O)c1cc2nc(-c3cccc(Cl)c3)cc(-c3cccc(Cl)c3)n2n1,IC50,-,RNA-dependent RNA polymerase,>10 µM
Cc1onc(-c2ccc(Cl)cc2)c1-c1ccc2cc(-c3nc4cc(C(=O)O)ccc4n3C3CCCCC3)ccc2n1,inhibition,33 µM,NS5B polymerase,100%
CNC(=O)c1c(-c2ccc(F)cc2)oc2cc(-c3ccco3)c(OC(C)C)cc12,IC50,-,Nonstructural protein 5B,≤0.5 µM
COc1ccc(-c2cccc(C)c2)c(-c2ccc3cc(-c4nc5cc(C(=O)O)ccc5n4C4CCCCC4)ccc3n2)c1,inhibition,33 µM,NS5B polymerase,103%
CNC(=O)c1c(-c2ccc(F)cc2)oc2cc(-c3cncs3)c(OC(C)C)cc12,IC50,-,Nonstructural protein 5B,≤0.5 µM
O=C(O)CCC(NC(=O)c1ccc2c(c1)nc(-c1ccc3nc(-c4ccccc4)ccc3c1)n2C1CCCCC1)C(=O)O,inhibition,33 µM,NS5B polymerase,79.74%
CCCOc1ccc(-c2cnc3c(C(=O)O)cnn3c2C2CCCCC2)cc1,IC50,-,RNA-dependent RNA polymerase,1–10 µM
CCC(CC)n1c(-c2ccc3nc(-c4cc(OC)ccc4-c4ccc(Cl)cc4)ccc3c2)nc2cc(C(=O)O)ccc21,inhibition,100 µM,NS5B polymerase,101%
N#Cc1cccc(C(=O)Nc2ccsc2-c2nc(C(=O)O)c(O)c(=O)[nH]2)c1,IC50,-,HCV polymerase,<25 µM
COc1ccc(-c2ccc(Cl)cc2)c(-c2ccc3cc(-c4nc5cc(C(=O)O)ccc5n4CC4CC4)ccc3n2)c1,inhibition,33 µM,NS5B polymerase,99.98%
O=C(O)c1cnn2c(-c3ccccc3)cc(-c3ccc(Cl)cc3)nc12,IC50,-,RNA-dependent RNA polymerase,>10 µM
COc1ccc(-c2ccc(Cl)cc2)c(-c2ccc3cc(-c4nc5cc(C(=O)O)ccc5n4C(C)C)ccc3n2)c1,inhibition,100 µM,NS5B polymerase,101%
C[C@@H](NC(=O)Nc1cccc(-c2nc(C(=O)O)c(O)c(=O)[nH]2)c1)c1cccc2ccccc12,IC50,-,HCV polymerase,<100 µM

Again, the opening 3 rows:

| smiles | read-out | dose | target | result |
|---|---|---|---|---|
| Cc1nc(C)c(COc2ccc(-c3cnc4c(-c5nn[nH]n5)cnn4c3C3CCCCC3)cc2)s1 | IC50 | - | RNA-dependent RNA polymerase | <1 µM |
| O=C(Nc1cscc1-c1nc(C(=O)O)c(O)c(=O)[nH]1)NS(=O)(=O)c1cccc(Br)c1 | IC50 | - | HCV polymerase | <25 µM |
| CN(C)c1ccc(-c2nc3ccc(-c4nc5cc(C(=O)O)ccc5n4C4CCCCC4)cc3nc2-c2ccc(N(C)C)cc2)cc1 | inhibition | 100 µM | NS5B polymerase | 104% |

ICn is the concentration giving n% inhibition. Inhibition is in % at the dose shown (toxicity tests: loss of growth or viability). Blank or dashed fields: not listed here. Neighbouring rows are from separate reports.